Measured values from several laboratories, pooled; numbers as filed in NIAID ChemDB.

All rows: tests in culture; organism: Hepatitis C virus; cells: Huh7; read-out: EC50

Two numbers with a dash give a range or band.

C=CC1CC1(NC(=O)[C@@H]1C[C@@H](OC(=O)Nc2ccccc2C(=O)O)CN1C(=O)[C@@H](NC(=O)OC(C)(C)C)C(C)(C)C)C(=O)NS(=O)(=O)C1CC1 ; strain or isolate: 1b ; read by: replicon ; value: >10 µM
CC(C)c1nc(N)nc2ccc(-c3ccc(F)cc3)nc12 ; read by: replicon ; value: <0.3 µM
Cc1nc(N(C)C)nc(N[C@@H]2C[C@H](CO)[C@@H](O)[C@H]2O)c1-c1nc2ccccc2s1 ; strain or isolate: 1b ; read by: replicon ; value: 13 µM
O=c1ccn([C@@H]2O[C@H](CO)[C@@H](O)[C@H]2O)c(=S)[nH]1 ; read by: replicon ; value: 0.86 µM
CCOC(=O)c1c(CSc2ccccc2)n(C)c2cc(N=[N-])c3c(c12)CN(C)CO3 ; strain or isolate: Genotype 1A ; read by: ELISA ; value: 11.9 µM
C=CC1C[C@]1(NC(=O)[C@@H]1C[C@@H](Oc2cc(-c3ccccc3)nc3cc(OC)ccc23)CN1C(=O)[C@@H](NC(=O)OC(C)(C)C)C(C)(C)C)C(=O)NS(=O)(=O)c1nc2ccc(OCC)cc2s1 ; strain or isolate: BMS ; value: 1–10 µM
COc1cccc(CC(=O)N/N=C/c2ccccc2OS(=O)(=O)c2ccc(C(C)=O)cc2)c1 ; read by: replicon ; value: <5 µM
C=CCCc1nc(N)nc2ccc(-c3ccc(F)cc3)nc12 ; read by: replicon ; value: <0.3 µM
N/C(Cc1ccc([N+](=O)[O-])cc1)=N\OC(=O)N1CCOCC1 ; read by: replicon ; value: 1.55 µM
CCOC(=O)n1cc(CNCCN2CCN(C)CC2)c(-c2ccccc2C)n1 ; value: >20 µM
COc1cccc(CC(=O)N/N=C/c2ccccc2OS(=O)(=O)Cc2cccc(C(F)(F)F)c2)c1 ; read by: replicon ; value: >50 µM
O=c1[nH]cnc2c1c(-c1ccsc1)cn2[C@@H]1O[C@H](CO)[C@@H](O)[C@H]1O ; strain or isolate: 1b ; value: 4.35 µM
C=CC1CC1(NC(=O)[C@@H]1C[C@@H](OC(=O)Nc2cc(C)ccc2-n2cccn2)CN1C(=O)[C@@H](NC(=O)OC(C)(C)C)C(C)(C)C)C(=O)NS(=O)(=O)C1CC1 ; strain or isolate: 1b ; read by: replicon ; value: <0.1 µM
COc1cc(Cc2cnc(/N=C3\C(=O)N(CN4CCN(c5ccccc5)CC4)c4ccc(F)cc43)nc2N)cc(OC)c1OC ; value: <50 µg/mL
CCc1nc(N)nc2ccc(-c3ccc(N4CCCC4=O)cc3)nc12 ; read by: replicon ; value: <0.3 µM
Nc1ccn([C@@H]2O[C@H](CO)[C@@H](O)[C@H]2F)c(=O)n1 ; read by: replicon ; value: <5 µM
Cc1cn([C@@H]2CP(=O)(OC(C)C)[C@@H](CO)O2)c(=O)[nH]c1=O ; strain or isolate: ZS11 (gt 1b) ; read by: luciferase / replicon ; value: >10 µM
O=c1[nH]c(=O)n2c3c1nnn3CC1OC2[C@H](O)[C@@H]1O ; value: 23.7 µM
COc1cc(Cc2cnc(/N=C3\C(=O)N(CN4CCN(c5cccc(Cl)c5)CC4)c4ccc(F)cc43)nc2N)cc(OC)c1OC ; value: <50 µg/mL
Nc1ccn([C@@H]2O[C@H](CO)C[C@H]2O)c(=O)n1 ; value: 34.1 µM
CCCCCCCCCCCCCCCC(=O)Nc1ccn([C@H]2CC[C@@H](COP(=O)(O)O[C@H]3C[C@H](n4cc(F)c(=O)[nH]c4=O)O[C@@H]3CO)O2)c(=O)n1 ; strain or isolate: P114/ET Q80K mutation ; read by: replicon ; value: 0.002 µM
N/C(=N\OC(=O)N1CCOCC1)c1ccc(O)cc1 ; read by: replicon ; value: 4.03 µM
CCc1nc(N)nc2ccc(-c3ccc(N)cc3)nc12 ; read by: replicon ; value: 0.3–1 µM
O=C(c1nn2c(C(F)(F)F)cc(C3CC3)cc2c1Cl)N1CCN([C@H]2C[C@H]3C[C@H]3[C@H]2O)C(=O)C1 ; strain or isolate: 1b ; changes: H94N ; read by: luciferase ; value: >1 µg/mL
Nc1nc(=O)n([C@@H]2O[C@H](CO)C[C@H]2O)cc1I ; value: 30.2 µM
C=CC1CC1(NC(=O)[C@@H]1C[C@@H](OC(=O)N2CCOCC2)CN1C(=O)[C@@H](NC(=O)OC(C)(C)C)C(C)(C)C)C(=O)NS(=O)(=O)C1CC1 ; strain or isolate: 1b ; read by: replicon ; value: >10 µM
COC(=O)N[C@H](C(=O)N1CCC[C@H]1c1ncc(-c2ccc(-c3ccc(-c4cnc([C@@H]5CCCN5C(=O)[C@@H](NC(=O)OC)C(C)C)[nH]4)cc3)cc2)[nH]1)C(C)C ; strain or isolate: Con1 ; read by: replicon ; value: 0.000006 µM
CN(C)c1nc(=O)n2c3c1nnn3C[C@H]1OC2[C@H](O)[C@@H]1O ; value: >100 µM
CN(C)S(=O)(=O)NC(=O)c1ccc2c(C3CCCCC3)c3n(c2c1)C[C@@H](O)[C@@H](O)c1ncccc1-3 ; read by: replicon ; value: >10 µM
O=C(COc1ccccc1)N/N=C/c1ccccc1OS(=O)(=O)c1ccc(C(F)(F)F)cc1 ; read by: replicon ; value: <5 µM
CCc1nc(N)nc2ccc(-c3ccc(F)cc3)nc12 ; read by: replicon ; value: <0.3 µM
CCCC(=O)O[C@H]1[C@H](C)[C@H](n2ccc(=O)[nH]c2=O)O[C@@]1(CO)N=[N+]=[N-] ; read by: luciferase ; value: 6.6 µM
CCCc1nc(N)nc2ccc(-c3ccc(NC(C)=O)cc3)nc12 ; read by: replicon ; value: 0.3–1 µM
COc1cc(Cc2cnc(/N=C3\C(=O)N(CN(C)C)c4ccc(F)cc43)nc2N)cc(OC)c1OC ; value: <50 µg/mL
CCOC(=O)c1c(CSc2ccccc2)n(C)c2cc(-c3cccnc3)c3c(c12)CN(C)CO3 ; strain or isolate: Genotype 1A ; read by: ELISA ; value: 20.2 µM
CC1=CC[C@H](C(=O)N(c2cc(C#CC(C)(C)C)sc2C(=O)O)C2CCC(O)(CO[C@H]3CCOC3)CC2)CC1 ; strain or isolate: Con1 (gt 1b) ; read by: luciferase ; value: 0.005 µM
C=CC1C[C@]1(NC(=O)[C@@H]1C[C@@H](Oc2cc(-c3ccccc3)nc3cc(OC)ccc23)CN1C(=O)[C@@H](NC(=O)OC(C)(C)C)C(C)(C)C)C(=O)NS(=O)(=O)c1ccc(Sc2ccc(Cl)cc2)s1 ; strain or isolate: BMS ; value: 1–10 µM
CCOC(=O)c1c(CS(=O)(=O)c2ccccc2)n(C)c2cc(-c3cccnc3)c(O)c(CN(C)C)c12 ; strain or isolate: Genotype 1A ; read by: ELISA ; value: 29.9 µM
COc1cccc(CC(=O)N/N=C/c2ccccc2OS(=O)(=O)c2ccc(Br)s2)c1 ; read by: replicon ; value: <5 µM
CC(C)C(=O)OC[C@@]1(N=[N+]=[N-])O[C@@H](n2ccc(=O)[nH]c2=O)[C@@H](C)[C@@H]1O ; read by: luciferase ; value: 3.6 µM
N/C(=N\OC(=O)N1CCOCC1)c1ccc(Cl)cc1 ; read by: replicon ; value: 1.52 µM
Nc1ccn([C@@H]2O[C@H](CO)[C@@H](O)C23CC3)c(=O)n1 ; strain or isolate: 1b ; read by: luciferase ; value: 7.3 µM
Cc1nc(N)nc(N[C@@H]2C[C@H](CO)[C@@H](O)[C@H]2O)c1-c1nc2ccccc2s1 ; strain or isolate: 1b ; read by: replicon ; value: 0.02 µM
CCCCNc1nc(=O)n2c3c1nnn3C[C@H]1OC2[C@H](O)[C@@H]1O ; value: >100 µM
Nc1ncnc2c1ncn2[C@@H]1O[C@H](CO)[C@@H](O)[C@H]1CO ; strain or isolate: 1b ; read by: luciferase ; value: >88 µM
O=C(O)/C=C/c1ccc(NC(=O)C2(NC(=O)c3ccc4c(C5CCCCC5)c5n(c4c3)CCOc3cccnc3-5)CCCC2)cc1 ; read by: replicon ; value: 0.01–1 µM
C=CC1C[C@]1(NC(=O)[C@@H]1C[C@@H](Oc2cc(-c3ccccc3)nc3cc(OC)ccc23)CN1C(=O)[C@@H](NC(=O)OC(C)(C)C)C(C)(C)C)C(=O)NS(=O)(=O)c1ccc(-c2cc(C(F)(F)F)nn2C)s1 ; strain or isolate: BMS ; value: 0.1–1 µM
O=C(Cc1ccccc1)N/N=C/c1ccccc1OS(=O)(=O)c1ccc(-c2ccccc2)cc1 ; read by: replicon ; value: >50 µM
CS(=O)(=O)NC(=O)c1ccc2c(C3CCCCC3)c3n(c2c1)CC(C(=O)N1CCOCC1)Cc1ccccc1-3 ; read by: replicon ; value: 0.01–1 µM
C=CC1CC1(NC(=O)[C@@H]1C[C@@H](OC(=O)Nc2cc(C(F)(F)F)ccc2-n2cccn2)CN1C(=O)[C@@H](NC(=O)OC(C)(C)C)C(C)(C)C)C(=O)NS(=O)(=O)C1CC1 ; strain or isolate: 1b ; read by: replicon ; value: <0.1 µM
COc1cccc(N2CCN(CN3C(=O)/C(=N\c4ncc(Cc5cc(OC)c(OC)c(OC)c5)c(N)n4)c4cc(F)ccc43)CC2)c1 ; value: <50 µg/mL
CCCC(=O)OC[C@@]1(N=[N+]=[N-])O[C@@H](n2ccc(=O)[nH]c2=O)[C@@H](C)[C@@H]1O ; read by: luciferase ; value: 3.6 µM
O=C(NC1(C(=O)O)CCCCC1)c1ccc2c(C3CCCCC3)c3n(c2c1)CC=Cc1ccccc1-3 ; read by: replicon ; value: 1–10 µM
CCOC(=O)c1c(CSc2ccccc2)n(C)c2cc(C#N)c(O)c(CN(N(C)C)N(C)C)c12 ; strain or isolate: Genotype 1A ; read by: ELISA ; value: 28.9 µM
CN(CCO)C(=O)C1=Cc2ccccc2C2=C(C3CCCCC3)c3cc(C(=O)NS(=O)(=O)N(C)C)ccc3C2C1 ; read by: replicon ; value: 0.01–1 µM
CCOC(=O)c1c(CSc2ccccc2)n(C)c2cc(C#N)c(O)c(CN(N3CCN(CCOCCO)CC3)N3CCN(CCOCCO)CC3)c12 ; strain or isolate: Genotype 1A ; read by: ELISA ; value: 36.9 µM
C=CC1CC1(NC(=O)[C@@H]1C[C@@H](OC(=O)Nc2cccc(C(F)(F)F)c2)CN1C(=O)[C@@H](NC(=O)OC(C)(C)C)C(C)(C)C)C(=O)NS(=O)(=O)C1CC1 ; strain or isolate: 1b ; read by: replicon ; value: 1–10 µM
COc1ccc2c(O[C@@H]3C[C@H]4C(=O)N[C@]5(C(=O)O)C[C@H]5/C=C\CCCCC[C@H](NC(=O)OC5CCCC5)C(=O)N4C3)cc(-c3csc(NC(C)C)n3)nc2c1 ; strain or isolate: Genotype 1A ; read by: replicon ; value: 0.004 µM
C=CC1C[C@]1(NC(=O)[C@@H]1C[C@@H](Oc2cc(-c3ccccc3)nc3cc(OC)ccc23)CN1C(=O)[C@@H](NC(=O)OC(C)(C)C)C(C)(C)C)C(=O)NS(=O)(=O)c1ccc(C)cn1 ; strain or isolate: BMS ; value: 0.1–1 µM
O=C(O)c1ccc2c(C3CCCCC3)c3n(c2c1)CCOc1ncccc1-3 ; read by: replicon ; value: 1–10 µM
C=CC1C[C@]1(NC(=O)[C@@H]1C[C@@H](Oc2cc(-c3ccccc3)nc3cc(OC)ccc23)CN1C(=O)[C@@H](NC(=O)OC(C)(C)C)C(C)(C)C)C(=O)NS(=O)(=O)c1ccc(Br)s1 ; strain or isolate: BMS ; value: 0.1–1 µM
COc1cc(Cc2cnc(/N=C3\C(=O)N(CN4CCCC4)c4ccc(F)cc43)nc2N)cc(OC)c1OC ; value: <50 µg/mL
C=CC1CC1(NC(=O)[C@@H]1C[C@@H](OC(=O)Nc2cc(C#N)ccc2-n2cccn2)CN1C(=O)[C@@H](NC(=O)OC(C)(C)C)C(C)(C)C)C(=O)NS(=O)(=O)C1CC1 ; strain or isolate: 1b ; read by: replicon ; value: <0.1 µM
CC(C)C(=O)O[C@H]1[C@H](C)[C@H](n2ccc(=O)[nH]c2=O)O[C@@]1(CO)N=[N+]=[N-] ; read by: luciferase ; value: 6.5 µM
O=C(NS(=O)(=O)c1ccccc1)c1ccc2c(C3CCCCC3)c3n(c2c1)CC(C(=O)N1CCOCC1)Cc1ccccc1-3 ; read by: replicon ; value: 0.01–1 µM
CN1CCN([C@@H](C(=O)N2CCC[C@H]2C(=O)Nc2ccc(C#Cc3ccc(NC(=O)[C@@H]4CCCN4C(=O)[C@@H](c4ccccc4)N4CCN(C)CC4)cc3)cc2)c2ccccc2)CC1 ; strain or isolate: GT1a ; read by: ELISA ; value: <0.0046 µM
C=CC1CC1(NC(=O)[C@@H]1C[C@@H](OC(=O)NCc2ccccc2Cl)CN1C(=O)[C@@H](NC(=O)OC(C)(C)C)C(C)(C)C)C(=O)NS(=O)(=O)C1CC1 ; strain or isolate: 1b ; read by: replicon ; value: 1–10 µM
C[C@@]1(O)[C@H](O)[C@@H](CO)O[C@H]1n1cnc2c(NCc3ccccc3)nc(N)nc21 ; strain or isolate: 1b ; read by: replicon ; value: 24 µM

7 of the rows above, restated:

smiles,strain or isolate,changes,read by,value
C=CC1C[C@]1(NC(=O)[C@@H]1C[C@@H](Oc2cc(-c3ccccc3)nc3cc(OC)ccc23)CN1C(=O)[C@@H](NC(=O)OC(C)(C)C)C(C)(C)C)C(=O)NS(=O)(=O)c1ccc(Br)s1,BMS,-,-,0.1–1 µM
C=CC1CC1(NC(=O)[C@@H]1C[C@@H](OC(=O)NCc2ccccc2Cl)CN1C(=O)[C@@H](NC(=O)OC(C)(C)C)C(C)(C)C)C(=O)NS(=O)(=O)C1CC1,1b,-,replicon,1–10 µM
COc1cc(Cc2cnc(/N=C3\C(=O)N(CN(C)C)c4ccc(F)cc43)nc2N)cc(OC)c1OC,-,-,-,<50 µg/mL
CCc1nc(N)nc2ccc(-c3ccc(N4CCCC4=O)cc3)nc12,-,-,replicon,<0.3 µM
C=CC1C[C@]1(NC(=O)[C@@H]1C[C@@H](Oc2cc(-c3ccccc3)nc3cc(OC)ccc23)CN1C(=O)[C@@H](NC(=O)OC(C)(C)C)C(C)(C)C)C(=O)NS(=O)(=O)c1ccc(C)cn1,BMS,-,-,0.1–1 µM
O=C(c1nn2c(C(F)(F)F)cc(C3CC3)cc2c1Cl)N1CCN([C@H]2C[C@H]3C[C@H]3[C@H]2O)C(=O)C1,1b,H94N,luciferase,>1 µg/mL
CCOC(=O)c1c(CSc2ccccc2)n(C)c2cc(-c3cccnc3)c3c(c12)CN(C)CO3,Genotype 1A,-,ELISA,20.2 µM

An empty or dashed field is not shown. Conditions beyond the fields shown may differ between rows. ECn: concentration that inhibits the pathogen or its effect by n%.